This is a selection; strong and weak results do not stand in their true shares. The source made the active and inactive calls. Cut-off read from the data, not from the text of the source: active = inhibition above about 30%; inactive = the rest.

The nature of the test: inhibition of GDH and TPI enzymes – biochemical, absorbance, full deck, artefact control for M. tuberculosis FBA inhibitor project, primary screen (AID 588335).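 Note: 0% = DMSO wells and 100% = wells lacking the enzyme.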 The conditions noted are these: GDH-TPI coupled enzyme counterscreen, NADH absorbance; at 4.8 µM; stronger effect = higher value. (In general: The purpose of a counterscreen is to sort out artefacts and off-target activity.)
By inhibition is commonly meant the relative decrease from the control value, in per cent. In the case of `CCN1CCC(Nc2ccc(Cl)cc2)CC1`, the inhibition is inactive: -4.2%.

`N#CC1(Nc2ccccc2)CCN(CCc2ccccc2)CC1`: the inhibition was inactive: -7.26%.

In the case of `CSc1ccc(C(=O)NCC2(N3CCOCC3)CCCCC2)cc1`, the inhibition was inactive: 8.28%.

Turning to `O=C(NCC1(N2CCCCC2)CCCCC1)c1cccc([N+](=O)[O-])c1`, the inhibition was inactive: -0.63%.

For the compound `O=C(NCC1(N2CCCCC2)CCCCC1)c1ccc(OC(F)F)cc1`, the inhibition is inactive: -5.45%.

For `COc1cc(C(=O)NCC2(N3CCCCC3)CCCCC2)ccc1OC(F)F`, the inhibition is inactive: 8.96%.

Turning to `O=C(NCC1(N2CCOCC2)CCCCC1)c1cc(=O)[nH]c2ccccc12`, the inhibition is inactive: -0.85%.

For the compound `CN1CCN(CCOC(=O)C(O)(c2ccccc2)c2ccccc2)CC1`, the inhibition was inactive: -8.24%.

`CC(C)c1ccc(C(=O)NCC2(N3CCOCC3)CCCCC2)cc1`: the inhibition was inactive: 0.34%.

For the compound `COc1ccc(NC2CCN(C(=O)OC(C)(C)C)CC2)cc1`, the inhibition was inactive: -2.2%.

With `O=C(NCC1(N2CCCCC2)CCCCC1)c1cccc(C(F)(F)F)c1`, the inhibition is inactive: -0.75%.

In the case of `COc1cc(OC)c(C(=O)NCC2(N(C)C)CCCCC2)cc1OC`, the inhibition was inactive: 6.44%.

Consider `O=C(NCC1(N2CCOCC2)CCCCC1)c1cc(F)c(F)cc1Cl`, for which the inhibition was inactive: 1.27%.

Turning to `CC(C)c1ccc(NC2CCN(C(=O)OC(C)(C)C)CC2)cc1`, the inhibition was inactive: -5.26%.

For `COc1ccc(CN(CCCl)CCCl)cc1Cl`, the inhibition is inactive: 6.37%.

`CN(C)c1cccc(C(=O)NCC2(N3CCCCC3)CCCCC2)c1`: the inhibition is inactive: -3.13%.

With `Cc1ccc(C(=O)NCC2(N(C)C)CCCCC2)o1`, the inhibition is inactive: -2.68%.

In the case of `CCCOc1ccc(C(=O)NCC2(N(C)C)CCCCC2)cc1OC`, the inhibition is inactive: -0.42%.

With `CN1CCC(Nc2cccc(F)c2)CC1`, the inhibition was inactive: -15.5%.

`O=C(NCC1(N2CCCCC2)CCCCC1)c1cncc(Br)c1`: the inhibition is inactive: -5.45%.

Turning to `CSc1ccccc1C(=O)NCC1(N2CCCCC2)CCCCC1`, the inhibition is inactive: -3.27%.

On to `Cc1cccc(NC2(C#N)CCN(Cc3ccccc3)CC2)c1`, for which the inhibition is inactive: -4.74%.

Turning to `COc1ccc(C(=O)NCC2(N3CCCCC3)CCCCC2)cc1`, the inhibition is inactive: 11.9%.

Take `CC(C)(C)OC(=O)N1CCC(N(C(=O)c2ccccc2)c2ccc(F)cc2)CC1`: the inhibition is inactive: -1.43%.

Turning to `COc1ccc(C(=O)NCC2(N3CCCCC3)CCCCC2)c(OC)c1OC`, the inhibition was inactive: -0.94%.

For `O=C(NCC1(N2CCCCC2)CCCCC1)c1ccc(=O)[nH]c1`, the inhibition was inactive: -2.09%.

`O=C(NCC1(N2CCCCC2)CCCCC1)c1cccs1`: the inhibition was inactive: 11.8%.

For `N#CC1(Nc2ccccc2)CCN(Cc2ccccc2)CC1`, the inhibition is inactive: -8.84%.

The record behind these values is PubChem BioAssay AID588335 (The Scripps Research Institute Molecular Screening Center, 2011).
